Values of other authors, collected in patent publication US11058716B2 (priority 2015, dated 2021).

Test system: Pseudomonas aeruginosa
Conditions: 2˜4 mM; cited from earlier work

Oc1cc(O)c2c(c1)O[C@H](c1ccc(O)c(O)c1)[C@@H](O)C2
reduction of the synthesis of PCN: 50%
